Compound potency records, mixed from different reports. Data source: NIAID ChemDB in PubChem.

Shared fields: tests on isolated targets

Lines come from different laboratories, so protocols vary.

| structure | tested at | target | read by | agent | measure | strain or isolate | value |
|---|---|---|---|---|---|---|---|
| Cc1ccc(S(=O)(=O)Nc2cc(-c3ccccc3)sc2C(N)=O)cc1 | - | NS3 ATPase | - | Hepatitis C virus | IC50 | - | 5–20 µM |
| CC(C)C[C@H](NC(=O)[C@H](CCC(=O)O)NC(=O)[C@@H](N)CC(=O)O)C(=O)N[C@H](C(=O)N[C@@H](CC1CCCCC1)C(=O)N[C@@H](CS)C(=O)O)C(C)C | - | NS3 protease | - | Hepatitis C virus | IC50 | - | 0.08 µM |
| CC(C1CCN(C(=O)OCc2ccccc2)CC1)N(C(=O)c1ccc(Cl)cc1Cl)c1cc(-c2ccccc2)sc1C(=O)O | - | NS3 ATPase | - | Hepatitis C virus | IC50 | - | 5–20 µM |
| COc1cc(C)c(S(=O)(=O)N(Cc2ccc(Br)cc2)C(Cc2ccccc2)C(=O)O)c(C)c1C | - | RNA-dependent RNA polymerase | - | Hepatitis C virus | IC50 | - | 5–20 µM |
| O=C(Nc1ccc2[nH]ncc2c1)c1cc(N2CCN(CCO)CC2)c(F)cc1F | 1 µg/mL | Reverse transcriptase | - | Hepatitis B virus | inhibition | - | 55% |
| O=C(NCc1cccs1)Nc1cscc1-c1nc(C(=O)O)c(O)c(=O)[nH]1 | - | HCV polymerase | - | Hepatitis C virus | IC50 | - | <25 µM |
| O=C1/C(=C/c2ccc(Cl)c(Cl)c2)SC(=S)N1S(=O)(=O)c1ccc(Cl)cc1 | - | NS5B polymerase | - | Hepatitis C virus | IC50 | - | ≤30 µM |
| CN1CCN(c2cc(C(=O)Nc3ccc4cn[nH]c4c3)c(F)cc2F)CC1 | 0.1 µg/mL | Nonstructural protein 5B | - | Hepatitis C virus | inhibition | - | 0% |
| O=C1/C(=C\c2ccc3c(c2)Cc2ccccc2-3)SC(=S)N1NS(=O)(=O)c1ccccc1 | - | NS5B polymerase | - | Hepatitis C virus | IC50 | - | ≤30 µM |
| O=C(O)c1nc(-c2sccc2NS(=O)(=O)c2cc(Cl)c(Cl)cc2Cl)[nH]c(=O)c1O | - | HCV polymerase | - | Hepatitis C virus | IC50 | - | <25 µM |
| CC1CCCC(C(=O)N(c2cc(-c3ccccc3)sc2C(=O)O)C(C)C)C1 | - | NS3 ATPase | - | Hepatitis C virus | IC50 | - | >20 µM |
| O=C(O)C(Cc1ccccc1)N(Cc1cccc(-c2cc3ccccc3o2)c1)C(=O)c1ccc(Cl)cc1Cl | - | RNA-dependent RNA polymerase | - | Hepatitis C virus | IC50 | - | 5–20 µM |
| O=C(Nc1ccc2[nH]ncc2c1)c1cc(N2CCNCC2)c(F)cc1F | 0.01 µg/mL | Reverse transcriptase | - | Hepatitis B virus | inhibition | - | 30% |
| Cc1ccc(S(=O)(=O)NC(=O)Nc2cscc2-c2nc(C(=O)O)c(O)c(=O)[nH]2)cc1 | - | HCV polymerase | - | Hepatitis C virus | IC50 | - | <25 µM |
| CSCC[C@H](NC(=O)[C@H](CCC(=O)O)NC(=O)[C@@H](N)CC(=O)O)C(=O)N[C@@H](CCC(=O)O)C(=O)N[C@@H](CCC(=O)O)C(=O)NCCC(=O)O | - | NS3 protease | - | Hepatitis C virus | IC50 | - | >200 µM |
| O=C1NC(=S)S/C1=C/c1ccc(-c2cc(C(F)(F)F)ccc2Cl)o1 | - | NS5B polymerase | - | Hepatitis C virus | IC50 | - | ≤30 µM |
| CC(C)C[C@H](NC(=O)[C@H](CCC(=O)O)NC(=O)[C@@H](N)CC(=O)O)C(=O)N[C@@H](CCC(=O)O)C(=O)N[C@@H](CC1CCCCC1)C(=O)N[C@@H](CS)C(=O)O | - | NS3 protease | - | Hepatitis C virus | IC50 | - | 0.12 µM |
| CC(C)N(C(=O)c1ccc(Cl)cc1Cl)c1cc(-c2ccc(F)cc2)sc1C(=O)O | - | NS3 ATPase | - | Hepatitis C virus | IC50 | - | <5 µM |
| O=C(O)[C@H](Cc1ccccc1)N(Cc1cccc(F)c1)C(=O)c1ccc(Cl)cc1Cl | - | RNA-dependent RNA polymerase | - | Hepatitis C virus | IC50 | - | <5 µM |
| CSCC[C@H](NC(=O)[C@H](CCC(=O)O)NS(=O)(=O)C(C)=O)C(=O)N[C@@H](CCC(=O)O)C(=O)N[C@@H](CCC(=O)O)C(=O)N[C@@H](CS)C(=O)O | - | NS3 protease | - | Hepatitis C virus | IC50 | - | 0.6 µM |
| O=C1/C(=C\c2ccc(Cl)c(Cl)c2)SC(=S)N1NS(=O)(=O)c1cc(Cl)cc(Cl)c1 | - | NS5B polymerase | - | Hepatitis C virus | IC50 | - | ≤30 µM |
| O=C(Nc1ccc2[nH]ncc2c1)c1cc(NCc2ccccn2)c(F)cc1F | 0.1 µg/mL | Reverse transcriptase | - | Hepatitis B virus | inhibition | - | 43% |
| O=C(O)c1nc(-c2ccc([N+](=O)[O-])s2)[nH]c(=O)c1O | - | HCV polymerase | - | Hepatitis C virus | IC50 | - | <25 µM |
| CC1(C)OCC(N(C(=O)c2ccc(Cl)cc2Cl)c2cc(-c3ccccc3)sc2C(=O)O)CO1 | - | NS3 ATPase | - | Hepatitis C virus | IC50 | - | <5 µM |
| O=C1/C(=C\c2cc(F)c(F)cc2F)SC(=S)N1NS(=O)(=O)Cc1ccccc1 | - | NS5B polymerase | - | Hepatitis C virus | IC50 | - | ≤30 µM |
| O=C(O)c1nc(-c2sccc2NC(=O)N2CCCCC2)[nH]c(=O)c1O | - | HCV polymerase | - | Hepatitis C virus | IC50 | - | <25 µM |
| Cc1ccc(S(=O)(=O)N(C)c2cc(-c3ccccc3)sc2C(=O)O)c(C)c1 | - | NS3 ATPase | - | Hepatitis C virus | IC50 | - | <5 µM |
| O=C(Nc1cccc(-c2nc(C(=O)O)c(O)c(=O)[nH]2)c1)c1cc(Cl)sc1Cl | - | HCV polymerase | - | Hepatitis C virus | IC50 | - | <100 µM |
| C=C[C@@H]1C[C@]1(NC(=O)[C@@H]1C[C@@H](Oc2nccc3ccc(Br)cc23)CN1C(C)=O)C(=O)NS(=O)(=O)C1CC1 | - | Nonstructural protein 3/4A | FRET | Hepatitis C virus | IC50 | 1b D168V | >3 µM |
| CCCC(=O)N(C)c1cc(-c2ccccc2)sc1C(=O)O | - | NS3 ATPase | - | Hepatitis C virus | IC50 | - | 5–20 µM |
| O=C(NCc1ccccc1)Nc1cccc(-c2nc(C(=O)O)c(O)c(=O)[nH]2)c1 | - | HCV polymerase | - | Hepatitis C virus | IC50 | - | <100 µM |
| CC(C)[C@H](NC(=O)[C@H](CC(=O)O)NC(=O)[C@@H](N)CCC(=O)O)C(=O)N[C@H](C(=O)NCC(=O)N[C@@H](CS)C(=O)O)C(C)C | - | NS3 protease | - | Hepatitis C virus | IC50 | - | 20 µM |
| CCOC(=O)c1ccccc1-c1ccc(CN(C(=O)c2ccc(Cl)cc2Cl)[C@@H](Cc2ccccc2)C(=O)O)o1 | - | RNA-dependent RNA polymerase | - | Hepatitis C virus | IC50 | - | <5 µM |
| O=C1/C(=C\c2c(F)cccc2Cl)SC(=S)N1NS(=O)(=O)c1ccccc1 | - | NS5B polymerase | - | Hepatitis C virus | IC50 | - | ≤30 µM |
| O=C(O)[C@H](Cc1ccccc1)N(Cc1cc2ccccc2o1)C(=O)c1ccc(Cl)cc1Cl | - | RNA-dependent RNA polymerase | - | Hepatitis C virus | IC50 | - | <5 µM |
| CC(C)C[C@H](NC(=O)[C@H](CCC(=O)O)N(C)C(=O)[C@@H](N)CC(=O)O)C(=O)N[C@@H](CCC(=O)O)C(=O)N[C@@H](CC1CCCCC1)C(=O)N[C@@H](CS)C(=O)O | - | NS3 protease | - | Hepatitis C virus | IC50 | - | 1 µM |
| CN(C(=O)c1cccs1)c1cc(-c2ccccc2)sc1C(=O)O | - | NS3 ATPase | - | Hepatitis C virus | IC50 | - | 5–20 µM |
| CSCC[C@H](NC(=O)[C@H](CCC(=O)O)NC(=O)[C@@H](N)CC(=O)O)C(=O)N[C@@H](CCC(=O)O)C(=O)N[C@@H](CCC(=O)O)C(=O)N[C@H](CO)CS | - | NS3 protease | - | Hepatitis C virus | IC50 | - | 130 µM |
| CCN(Cc1ccccc1)C(=O)Nc1ccsc1-c1nc(C(=O)O)c(O)c(=O)[nH]1 | - | HCV polymerase | - | Hepatitis C virus | IC50 | - | <25 µM |
| CC[C@H](NC(=O)[C@H](C(C)C)N(C)C(=O)[C@@H](NC(=O)[C@H](CC(=O)O)NC(=O)[C@@H](N)CCC(=O)O)C(C)C)C(=O)N[C@@H](CS)C(=O)O | - | NS3 protease | - | Hepatitis C virus | IC50 | - | 230 µM |
| CC1=NCCN1c1cc(C(=O)Nc2ccc3[nH]ncc3c2)c(F)cc1F | - | Reverse transcriptase | - | Hepatitis B virus | IC50 | - | 0.1–1 µg/mL |
| O=C1/C(=C\c2ccc(Cl)c(Cl)c2)SC(=S)N1NS(=O)(=O)c1cccs1 | - | NS5B polymerase | - | Hepatitis C virus | IC50 | - | ≤30 µM |
| CC1CCC(C(=O)N(c2cc(C3CCN(C)CC3)sc2C(=O)O)C(C)C)CC1 | - | NS3 ATPase | - | Hepatitis C virus | IC50 | - | <5 µM |
| O=C(Nc1ccc2[nH]ncc2c1)c1cc(N2CCC(O)CC2)c(F)cc1F | 10 µg/mL | Nonstructural protein 5B | - | Hepatitis C virus | inhibition | - | 81% |

For reference, 7 entries again:

structure	tested at	target	read by	agent	measure	strain or isolate	value
CSCC[C@H](NC(=O)[C@H](CCC(=O)O)NC(=O)[C@@H](N)CC(=O)O)C(=O)N[C@@H](CCC(=O)O)C(=O)N[C@@H](CCC(=O)O)C(=O)NCCC(=O)O	-	NS3 protease	-	Hepatitis C virus	IC50	-	>200 µM
O=C(O)c1nc(-c2sccc2NC(=O)N2CCCCC2)[nH]c(=O)c1O	-	HCV polymerase	-	Hepatitis C virus	IC50	-	<25 µM
O=C(O)c1nc(-c2sccc2NS(=O)(=O)c2cc(Cl)c(Cl)cc2Cl)[nH]c(=O)c1O	-	HCV polymerase	-	Hepatitis C virus	IC50	-	<25 µM
CC1CCC(C(=O)N(c2cc(C3CCN(C)CC3)sc2C(=O)O)C(C)C)CC1	-	NS3 ATPase	-	Hepatitis C virus	IC50	-	<5 µM
O=C(O)[C@H](Cc1ccccc1)N(Cc1cc2ccccc2o1)C(=O)c1ccc(Cl)cc1Cl	-	RNA-dependent RNA polymerase	-	Hepatitis C virus	IC50	-	<5 µM
Cc1ccc(S(=O)(=O)NC(=O)Nc2cscc2-c2nc(C(=O)O)c(O)c(=O)[nH]2)cc1	-	HCV polymerase	-	Hepatitis C virus	IC50	-	<25 µM
CCOC(=O)c1ccccc1-c1ccc(CN(C(=O)c2ccc(Cl)cc2Cl)[C@@H](Cc2ccccc2)C(=O)O)o1	-	RNA-dependent RNA polymerase	-	Hepatitis C virus	IC50	-	<5 µM

a–b is a range or a potency band. ICn: concentration for n% inhibition. Blank or dashed fields: not listed here. Percent inhibition refers to the dose given; in toxicity tests it is the harm to the cells.